Results of unrelated studies side by side (data: NIAID ChemDB).

All rows: toxicity to cultured cells; cell line: MT-4; read by: luminescence; measure: CC50

Lines come from different laboratories, so protocols vary. CCn is the concentration with n% toxicity to the cells.

C[C@H]1CC[C@@]2(ON=C3OCCC[C@@H]32)[C@H]2CN1C(=O)c1c(O)c(=O)c(C(=O)NCc3c(F)cc(F)cc3F)cn12 ; result: 50 µM
COc1cc2c(cc1Cc1cccc(Cl)c1F)c(=O)c(C(=O)O)cn2[C@H](CO)C(C)C ; result: 3.091 µM
O=C(NCCCCCN1CCCC2=C[C@@H]3C[C@@H](CN4CCCC[C@H]34)[C@@H]21)c1ccc(OC(F)(F)F)cc1 ; result: 12.87 µM
CCCCCCCCCC(=O)OCOc1c2n(cc(C(=O)NCc3ccc(F)cc3F)c1=O)[C@@H]1CN(C2=O)[C@@H](C)CC[C@]12CC(C)=NO2 ; result: 50 µM
C[C@H]1CC[C@]2(CC(=O)N(Cc3ccc4ncsc4c3)O2)[C@H]2CN1C(=O)c1c(O)c(=O)c(C(=O)NCc3c(F)cc(F)cc3F)cn12 ; result: 50 µM
CC(=O)O[C@@H]1C2[C@]3(CC[C@@]45C[C@@]46CC[C@H](OC(=O)c4ccccc4)C(C)(C)[C@@H]6CCC5[C@]3(C)[C@@H]1OC(C)=O)CO[C@@]1(C(C)(C)O)CC[C@]2(C)O1 ; result: >30 µM
C[C@@H]1CO[C@@]23CCCC[C@@H]2n2cc(C(=O)NCc4ccc(F)c(Cl)c4F)c(=O)c(O)c2C(=O)N13 ; result: 4.6 µM
C[C@H]1CC[C@@]2(CN(C)C(=O)O2)[C@H]2CN1C(=O)c1c(O)c(=O)c(C(=O)NCc3c(F)cc(F)cc3F)cn12 ; result: 50 µM
O=C(NCc1c(F)cc(F)cc1F)c1cn2c(c(O)c1=O)C(=O)N[C@H]1COCC[C@H]12 ; result: 38.3 µM
O=C(NCCCCCCN1CCC[C@H]2C[C@@H]3C[C@@H](CN4CCCC[C@H]34)[C@@H]21)c1ccc(OC(F)(F)F)cc1 ; result: >20 µM
C[C@H]1CC[C@@H](C(F)F)N2CN1C(=O)c1c(O)c(=O)c(C(=O)NCc3c(F)cc(F)cc3F)cn12 ; result: 15.7 µM
CCCCCCCCCCCCCCCCCC(=O)Oc1c2n(cc(C(=O)NCc3ccc(F)cc3F)c1=O)[C@@H]1CN(C2=O)[C@@H](C)CC[C@]12CC(C)=NO2 ; result: 50 µM
Cc1sc(-c2ccncc2)c(C2=CCC(C)(C)CC2)c1[C@H](OC(C)(C)C)C(=O)O ; result: 42 µM
COc1ccc(CN2O[C@@]3(CC[C@H](C)N4C[C@H]3n3cc(C(=O)NCc5c(F)cc(F)cc5F)c(=O)c(O)c3C4=O)CC2=O)cc1 ; result: 50 µM
O=C(NCCCCCCN1CCCC2=C[C@@H]3C[C@@H](CN4CCCC[C@H]34)[C@@H]21)c1ccc(C(F)(F)F)cc1 ; result: >20 µM
C/C=C/C(=O)O[C@H]1CC[C@]23C[C@]24CC[C@]25CO[C@@]6(C(C)(C)O)CC[C@](C)(O6)C2[C@@H](OC(C)=O)[C@@H](OC(C)=O)[C@@]5(C)C4CC[C@H]3C1(C)C ; result: <5 µM
O=C(NCc1ccc(F)c(Cl)c1F)c1cn2c(c(O)c1=O)C(=O)N1CCCO[C@]13C1CC1C[C@H]23 ; result: 20.2 µM
COC1=NO[C@@]2(CC[C@@H](C)N3C[C@H]2n2cc(C(=O)NCc4c(F)cc(F)cc4F)c(=O)c(O)c2C3=O)C1 ; result: 13.4 µM
CC1=C[C@H](C)N2CN([C@@H]1C)n1cc(C(=O)NCc3ccc(F)cc3F)c(=O)c(O)c1C2=O ; result: 50 µM
COc1cc(/C=C/C(=O)OCCCc2ccc(O[C@@H](COC(=O)/C=C/c3ccc(O)c(OC)c3)[C@@H](OC)c3ccc(O)c(OC)c3)c(OC)c2)ccc1O ; result: >10 µM
O=C(/C=C/C(F)(F)F)NCCCCN1CCCC2=C[C@@H]3C[C@@H](CN4CCCC[C@H]34)[C@@H]21 ; result: >20 µM
O=C(NCCCCCCN1CCC[C@@H]2C[C@@H]3C[C@@H](CN4CCCC[C@H]34)[C@@H]21)c1c(F)cc(Br)cc1F ; result: >20 µM
CCCCCOC(=O)OCOc1c2n(cc(C(=O)NCc3ccc(F)cc3F)c1=O)[C@@H]1CN(C2=O)[C@@H](C)CC[C@]12CC(OC)=NO2 ; result: 50 µM

For reference, 3 entries again:

{"SMILES": "C[C@H]1CC[C@]2(CC(=O)N(Cc3ccc4ncsc4c3)O2)[C@H]2CN1C(=O)c1c(O)c(=O)c(C(=O)NCc3c(F)cc(F)cc3F)cn12", "result": "50 µM"}
{"SMILES": "C/C=C/C(=O)O[C@H]1CC[C@]23C[C@]24CC[C@]25CO[C@@]6(C(C)(C)O)CC[C@](C)(O6)C2[C@@H](OC(C)=O)[C@@H](OC(C)=O)[C@@]5(C)C4CC[C@H]3C1(C)C", "result": "<5 µM"}
{"SMILES": "CC(=O)O[C@@H]1C2[C@]3(CC[C@@]45C[C@@]46CC[C@H](OC(=O)c4ccccc4)C(C)(C)[C@@H]6CCC5[C@]3(C)[C@@H]1OC(C)=O)CO[C@@]1(C(C)(C)O)CC[C@]2(C)O1", "result": ">30 µM"}